The results in this text go back to US20240324531A1, “METHOD TO INCREASE POLLEN FERTILITY” (Keygene N.V., priority 2021, published 2024).

Where two headings read alike, the source gives them in different places.

The test relates to pollen of AC interspecific hybrids from a cross of Brassica oleracea and Brassica rapa. Particulars: higher concentrations (above 0.5 μM), 10 days.

As to `NC1=NC(=O)C(=Cc2ccc(O)cc2)S1` [Mirin, 2-Amino-5-[(4-hydroxyphenyl)methylene]-4(5H)-thiazolone], the “pollen size and viability at higher concentrations (MTT staining)” value is listed as “larger but non-viable pollen”. For the same molecule, the “pollen size and viability at higher concentrations (MTT staining)” value (listed as mirin) is recorded as “bigger but not viable pollen”.
